A mixed list of measured activities; the numbers were collected in NIAID ChemDB.

All rows: tests in culture; agent: HIV-1; cells: CEM; read-out: fold resistance

Fold resistance has wild type as its base.

smiles,strain or isolate,mutations,method,value
Nc1ccn([C@H]2CC[C@@H](CO)O2)c(=O)n1,IIIB-BHAP)(0.1)(RT-L100I,RT-L100I,syncytia,1
CCOCn1c(Sc2ccccc2)c(CC)c(=O)[nH]c1=O,IIIB HEPT-resistant (RT Y188H),RT-Y188H,syncytia,≥4000
Cc1cn([C@H]2C[C@H](N=[N+]=[N-])[C@@H](CO)O2)c(=O)[nH]c1=O,IIIB TIBO R82150-resistant (RT L100I),RT-L100I,syncytia,1
CCOCn1c(Cc2ccccc2)c(C(C)C)c(=O)[nH]c1=O,Y-1 (RT-K103N),RT-K103N,cytopathic effect,200
Nc1ncnc2c1ncn2CCOCP(=O)(O)O,IIIB-TSAO-m3T(10)(RT-Y181C),RT-Y181C,syncytia,0.857
CCOCn1c(Sc2ccccc2)c(CC)c(=O)[nH]c1=S,IIIB BHAP(RT-L100I),RT-L100I,syncytia,17.5
CC(C)=CCOc1cc(NC(=S)c2ccoc2C)ccc1Cl,D-3 (RT-V108I M184I),RT-V108I M184I,cytopathic effect,2
CCc1cc(NCc2nc3c(Cl)ccc(Cl)c3o2)c(=O)[nH]c1C,IIIB TIBO R82913-resistant (RT K103N),RT-K103N,syncytia,71.4
CC(C)=CCOc1cc(NC(=S)c2ccsc2C)ccc1Cl,IIIB,RT-L100I,cytopathic effect,2
CCNc1cccnc1N1CCN(C(=O)c2cc3cc(OC)ccc3[nH]2)CC1,IIIB BHAP(RT-L100I),RT-L100I,syncytia,125
Cc1occc1C(=S)Nc1ccc(Cl)c(/C=N/OC(C)(C)C)c1,IIIB,RT-L100I,cytopathic effect,8.13
Cc1cn([C@@H]2O[C@H](CO[Si](C)(C)C(C)(C)C)[C@@]3(OS(=O)(=O)C=C3N)[C@H]2O[Si](C)(C)C(C)(C)C)c(=O)[nH]c1=O,IIIB TIBO R82913 STR-B02 (RT L100I E138K),RT-L100I E138K,syncytia,117
Cc1cn([C@@H]2O[C@H](CO[Si](C)(C)C(C)(C)C)C3(OS(=O)(=O)C=C3N)[C@H]2O[Si](C)(C)C(C)(C)C)c(=O)n(C)c1=O,IIIB BHAP(RT-L100I),RT-L100I,syncytia,1.33
Nc1nc2c(ncn2[C@H]2CC[C@@H](CO)O2)c(=O)[nH]1,IIIB TIBO R82150-resistant (RT L100I),RT-L100I,syncytia,1
CC(C)=CCOc1cc(NC(=S)c2ccoc2C)ccc1Cl,IIIB,RT-L100I,syncytia,19.44
CC(C)=CCN1Cc2cc(Cl)cc3[nH]c(=S)n(c23)C[C@@H]1C,IIIB-TIBO(0.5)(RT-L100I),RT-L100I,syncytia,18.6
CCOCn1c(Cc2cc(C)cc(C)c2)c(CC)c(=O)[nH]c1=O,IIIB TIBO R82913 STR-1 (RT L100I Y181C),RT-L100I Y181C,syncytia,800
Cc1cn([C@@H]2O[C@H](CO[Si](C)(C)C(C)(C)C)C3(OS(=O)(=O)C=C3N)[C@H]2O[Si](C)(C)C(C)(C)C)c(=O)n(C)c1=O,IIIB,RT-L100I,syncytia,0.64
O=c1[nH]cnc2c1ncn2[C@H]1CC[C@@H](CO)O1,IIIB TIBO R82913 STR-B22 (RT L100I Y188H),RT-L100I Y188H,syncytia,1.6
Cc1ccnc2c1NC(=O)c1cccnc1N2C1CC1,C-1 (RT-K101E),RT-K101E,cytopathic effect,1
Nc1ncnc2c1ncn2CC(CF)OCP(=O)(O)O,IIIB TIBO R82913 STR-1 (RT L100I Y181C),RT-L100I Y181C,syncytia,1
O=c1[nH]cnc2c1ncn2[C@H]1CC[C@@H](CO)O1,IIIB-Nevirapine(1.0)(RT-Y181C),RT-Y181C,syncytia,2

2 of the rows above, restated:

CCNc1cccnc1N1CCN(C(=O)c2cc3cc(OC)ccc3[nH]2)CC1 ; strain or isolate: IIIB BHAP(RT-L100I) ; mutations: RT-L100I ; method: syncytia ; value: 125
Cc1cn([C@@H]2O[C@H](CO[Si](C)(C)C(C)(C)C)[C@@]3(OS(=O)(=O)C=C3N)[C@H]2O[Si](C)(C)C(C)(C)C)c(=O)[nH]c1=O ; strain or isolate: IIIB TIBO R82913 STR-B02 (RT L100I E138K) ; mutations: RT-L100I E138K ; method: syncytia ; value: 117

Neighbouring rows are from separate reports.